Positions count from the first letter of the chain named. This is one part of the list. Env chains of viruses from a treatment-interruption trial, translated from the printed DNA. IC50 / IC80 of two broadly neutralizing antibodies; lower = more sensitive virus; >50 µg/ml means not reached and <0.001 µg/ml is below the lowest dose. No active / inactive call.
B1: HIV-1 Env, rebound clone, placebo arm (protein)
chain: MKVKGTRMNWQHLWRWGTLMLGLVIICKASNTNLWVTVYYGVPAWEDADTTLFCASDAKAYSTEKHNVWATHACVPTDPNPQEISLPNVTENFDMWKNNMVEQMHEDIISLWDESLKPCVKLTPLCVTLTCSNTTITNGNNSMVDPEEIKNCTFNMTTEIIDKKKKEFALFYKLDIVQINNGNDSKDYRLINCNVSTIKQACPKVSFEPIPIHYCAPAGFAILKCKDKNFNGTGPCKNVSTVQCTHGIKPVVSTQLLLNGSLAEEDIVIRTKNITDNGNNIIVHLNESITINCTRPNNNTRKSIHLGQGQAFYATGAIIGDIRQAHCNVSGSQWINMIKRVAGKLKGVFSKNVTFNSSAGGDLEITTHSFNCGGEFFYCNTSNLFNSSILTSNNTNENITLPCKIRQIVRMWQTVGQAMYAPPIAGSIICTSNITGLILTRDGGSNETNGTDTFRPGGGNMKDNWRSELYKYKVVRIKPLGIAPTKARRRVVGREKRAIGVLGAALLGFLGTAGSTMGAASITLTVQVRQLLSGIVQQQSNLLRAIEAQQHLLQLTVWGIKQLQARVLAVERYLRDQQLLGIWGCSGKLICTTNVPWNASWSNKSYEEIWDNMTWIQWDREIDNYTQLIYSLIEESQNQQEKNEQDLLALDKWTSLWSWFDISNWLWYIRIFIIIVGGLIGLRIVFAVLSIVNRVRQGYSPLSLQTLLPHPPEADRPGEIEEGGGEQGRTRSIRLVNGFLALAWDDLRNLCLFLYHHLRDFILTAARTVETLGHRGWEILKYLGNLLCYWGQELKNSVITLLDTTAIAVGNWTDRFIELGQRVVRAVLHIPRRVRQGLERALL
B2: HIV-1 Env, rebound clone, placebo arm (protein)
chain: MKVKGTRMNWQHLWRWGTLMLGLVIICKASNTNLWVTVYYGVPAWEDADTTLFCASDAKAYSTEKHNVWATHACVPTDPNPQEISLPNVTENFDMWKNNMVEQMHEDIISLWDESLKPCVKLTPLCVTLTCSDINITNSSNTTITNGNNSMVDPEEIKNCTFNMTTEIIDKKKKEFALFYKLDIVQINNGKDYRLINCNVSTIKQACPKVSFEPIPIHYCAPAGFAILKCKDKNFNGTGPCKNVSTVQCTHGIKPVVSTQLLLNGSLAEEDIVIRTKNITDNGNNIIVHLNESITINCTRPNNNTRKSIHLGQGQAFYATGAIIGDIRQAHCNVSGSQWINMIKRVAGKLKGVFSKNVTFNSSAGGDLEITTHSFNCGGEFFYCNTSNLFNSSILTSNNTNENITLPCKIRQIVRMWQTVGQAMYAPPIAGSIICTSNITGLILTRDGGSNETNGTDTFRPGGGNMKDNWRSELYKYKVVRIKPLGIAPTKARRRVVGREKRAIGVLGAALLGFLGTAGSTMGAASITLTVQVRQLLSGIVQQQSNLLRAIEAQQHLLQLTVWGIKQLQARVLAVERYLRDQQLLGIWGCSGKLICTTNVPWNASWSNKSYEEIWDNMTWIQWDREIDNYTQLIYSLIEESQNQQEKNEQDLLALDKWTSLWSWFDISNWLWYIRIFIIIVGGLIGLRIVFAVLSIVNRVRQGYSPLSLQTLLPHPPEADRPGEIEEGGGEQGRTRSIRLVNGFLALAWDDLRNLCLFLYHHLRDFILTAARTVETLGHRGWEILKYLGNLLCYWGQELKNSVITLLDTTAIAVGNWTDRFIELGQRVVRAVLHIPRRVRQGLERALL
B3: HIV-1 Env, rebound clone, placebo arm (protein)
chain: MKVKGTRMNWQHLWRWGTLMLGLVIICKASNTNLWVTVYYGVPAWEDADTTLFCASDAKAYSTEKHNVWATHACVPTDPNPQEISLPNVTENFDMWKNNMVEQMHEDIISLWDESLKPCVKLTPLCVTLTCSDINITNSSNTTITNGNNSMVDPEEIKNCTFNMTTEIIDKKKKEFALFYKLDIVQINNGNDSKDYRLINCNVSTIKQACPKVSFEPIPIHYCAPAGFAILKCKDKNFNGTGPCKNVSTVQCTHGIKPVVSTQLLLNGSLAEEDIVIRTKNITDNGNNIIVHLNESITINCTRPNNNTRKSIHLGQGQAFYATGAIIGDIRQAHCNVSGSQWINMIKRVAGKLKGVFSKNVTFNSSAGGDLEITTHSFNCGGEFFYCNTSNLFNSSILTSNNTNENITLPCKIRQIVRMWQTVGQAMYAPPIAGSIICTSNITGLILTRDGGSNETNGTDTFRPGGGNMKDNWRSELYKYKVVRIKPLGIAPTKARRRVVGREKRAIGVLGAALLGFLGTAGSTMGAASITLTVQVRQLLSGIVQQQSNLLRAIEAQQHLLQLTVWGIKQLQARVLAVERYLRDQQLLGIWGCSGKLICTTNVPWNASWSNKSYEEIWDNMTWIQWDREIDNYTQLIYSLIEESQNQQEKNEQDLLALDKWTSLWSWFDISNWLWYIRIFIIIVGGLIGLRIVFAVLSIVNRVRQGYSPLSLQTLLPHPPEADRPGEIEEGGGEQGRTRSIRLVNGFLALAWDDLRNLCLFLYHHLRDFILTAARTVETLGHRGWEILKYLGNLLCYWGQELKNSVITLLDTTAIAVGNWTDRFIELGQRVVRAVLHIPRRVRQGLERALL
B4: HIV-1 Env, rebound clone, placebo arm (protein)
chain: B3 chain with D274G
B5: HIV-1 Env, rebound clone, placebo arm (protein)
chain: B3 chain with R678K, E727K
B6: HIV-1 Env, rebound clone, placebo arm (protein)
chain: B3 chain with P720S

Target: antibody 10-1074
Experiment: neutralization IC50; higher = virus less sensitive to the antibody
Description: (§1)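 Pseudovirus bearing the Env chain mixed with antibody, from 50 µg/ml in fivefold dilutions, on TZM-bl reporter cells, in duplicate.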

| Binder | neutralization IC50 [µg/mL] |
| --- | --- |
| B1 | 0.006 |
| B2 | 0.01 |
| B3 | 0.012 |
| B4 | 0.003 |
| B5 | 0.013 |
| B6 | 0.012 |

Target: antibody 3BNC117
Experiment: as above
Description: as §1

| Binder | neutralization IC50 [µg/mL] |
| --- | --- |
| B1 | 0.163 |
| B2 | 0.178 |
| B3 | 0.141 |
| B4 | 0.223 |
| B5 | 0.158 |
| B6 | 0.208 |

Target: antibody 10-1074
Experiment: neutralization IC80; higher = virus less sensitive to the antibody
Description: as §1

| Binder | neutralization IC80 [µg/mL] |
| --- | --- |
| B1 | 0.013 |
| B2 | 0.024 |
| B3 | 0.026 |
| B4 | 0.024 |
| B5 | 0.036 |
| B6 | 0.026 |

Target: antibody 3BNC117
Experiment: as above
Description: as §1

| Binder | neutralization IC80 [µg/mL] |
| --- | --- |
| B1 | 0.771 |
| B2 | 0.462 |
| B3 | 0.5 |
| B4 | 0.584 |
| B5 | 0.512 |
| B6 | 0.586 |

— the supplement of paper PMC12637763
